Earlier results on one compound are cited in US6809181B2, “Human beta-defensin-3 (HBD-3), a highly cationic beta-defensin antimicrobial peptide” (University of Iowa Research Foundation, priority 2000, dated 2004).

Structures are written as SMILES.

The series has as its system Legionella spp. On the set-up: unit not given beside the values. Particulars: cited from earlier work.

With `CC[C@H]1OC(=O)[C@H](C)[C@@H](O[C@H]2C[C@@](C)(OC)[C@@H](O)[C@H](C)O2)[C@H](C)[C@@H](O[C@@H]2O[C@H](C)C[C@H](N(C)C)[C@H]2O)[C@](C)(O)C[C@@H](C)C(=O)[C@H](C)[C@@H](O)[C@]1(C)O` [ERYTHROMYCIN, erythromycin], the MIC90 is recorded as 0.25.
